Measurements as given in ChEMBL document CHEMBL1201862, “PubChem BioAssay data set” (2004).
This is one part of the list. Only a part of the results of these assays is listed, not drawn at random. Activity calls are given as the source filed them. The calls are words filed in the database; no cut-off is given here.

Assay: qHTS Assay for Inhibitors of Hepatitis C Virus (HCV).
Assay type: functional

Row | SMILES | Potency
1 | O=[N+]([O-])c1cc([N+](=O)[O-])c(OC2CCCCC2O)c([N+](=O)[O-])c1 (stereo unspecified) | inactive
